Molecules are shown by their SMILES. Values joined by “and” are separate entries in the source; they are usually repeats but may differ in a detail not shown here. Equal entries are not always repeated. Only a part is listed here, and it is no random draw. Active and inactive are the calls of the source.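 How the source made its calls: active means inhibition above the campaign mean inhibition over all tested compounds plus 3 SD (cut at about 28% in these data); inactive means the rest.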

For orientation: inhibition means the relative decrease from the control value, in per cent.

For this assay, the system named is M18 aspartyl aminopeptidase (Plasmodium falciparum 3D7). Briefly: inhibition of P. falciparum M18 aminopeptidase – biochemical, QFRET, recombinant enzyme, primary screen (AID 1822).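 Further: 0% = plate median of test compound wells and 100% = 2 mM ZnCl2.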 The conditions noted are these: recombinant PfM18AAP, H-Glu-NHMec fluorogenic cleavage; at 7.35 µM; stronger effect = higher value.
Take `O=C(NC1CCS(=O)(=O)C1)NP(=S)(Oc1ccccc1)Oc1ccccc1` (stereo not given): the inhibition is inactive: 2.22%.

On to `CCNC(=S)/N=C(\N)N[N+](=O)[O-]`, for which the inhibition is inactive: 3.27%.

For the compound `c1ccc(-c2nn[nH]n2)c(-c2nn[nH]n2)c1`, the inhibition was inactive: 8.74%.

Consider `CCOC(=O)NC(Sc1ccccc1)C(Cl)(Cl)Cl` (stereo not given), for which the inhibition was inactive: -7.64%.

For `Cc1ccc(NP(=O)(Oc2cccc(C)c2)Oc2cccc(C)c2)nc1`, the inhibition is inactive: -8.66%.

On to `Cc1ccccc1OP(=O)(Nc1ccccn1)Oc1ccccc1C`, for which the inhibition was inactive: 1.8%.

On to `CN(C)C(=O)Oc1noc2ccccc12`, for which the inhibition was inactive: 2.21%.

For `O=c1c2cc([N+](=O)[O-])ccc2[nH]c2c([N+](=O)[O-])cc([N+](=O)[O-])cc12`, the inhibition was inactive: 0.51%.

As for `COC(=O)c1cc2c(s1)N=C(c1ccccc1)N(C)P2(=O)N1CCOCC1` (stereo not given), the inhibition is inactive: 5.33%.

Turning to `Cc1ccc(OP(=O)(Nc2ccccn2)Oc2ccc(C)cc2)cc1`, the inhibition is inactive: -9.05%.

As to `CC(=O)NC(SC(=S)N(CC(C)C)CC(C)C)C(Cl)(Cl)Cl` (stereo not given), the inhibition is inactive: 14.2%.

As to `O=C(OC1CN2CCC1CC2)c1ccccc1` (stereo not given), the inhibition is inactive: 3.15%.

Regarding `CCC(=O)N1C2C3N(C(=O)CC)C1C1N(C(=O)CC)C(C(N1C(=O)CC)N3C(=O)CC)N2C(=O)CC`, the inhibition was inactive: -1.15%.

Consider `CC(C)(C)C(=O)NC(Sc1ccccc1)C(Cl)(Cl)Cl` (stereo not given), for which the inhibition is inactive: -8.86%.

Regarding `O=P1(Nc2nc3ccc(Cl)cc3s2)COc2ccccc2O1` (stereo not given), the inhibition is inactive: -8.8%.

For the compound `CCOc1ccc(C2=NCC(CBr)S2)cc1` (stereo not given), the inhibition was inactive: -4.84%.

As for `CC(=O)Nc1ccc([As](=O)(O)O)c(O)c1`, the inhibition is inactive: -11.8%.

For the compound `CC(=O)Nc1ccc(Oc2c([N+](=O)[O-])cc([N+](=O)[O-])cc2[N+](=O)[O-])cc1`, the inhibition is inactive: 1.92%.

With `CC(=O)c1ccc(N2CC2c2ccncc2)cc1` (stereo not given), the inhibition was inactive: -7.18%.

Regarding `c1nnnn1CCn1cnnn1`, the inhibition was inactive: 0.12%.

Regarding `O=P(Nc1nccs1)(c1ccccc1)c1ccccc1`, the inhibition is inactive: -7.69%.

Consider `CC(C)C(=O)NC(Sc1ccccc1)C(Cl)(Cl)Cl` (stereo not given), for which the inhibition was inactive: -1.71%.

As for `O=P(Nc1nc2ccccc2s1)(c1ccccc1)c1ccccc1`, the inhibition was inactive: 14.3%.

For the compound `CN(C)C1(CNC(=O)c2ccc(Cl)c(S(N)(=O)=O)c2)CCCCC1`, the inhibition is inactive: 1.09%.

Turning to `O=P(Nc1ccccn1)(c1ccc(Br)cc1)c1ccc(Br)cc1`, the inhibition is inactive: -1.57%.

Regarding `Nc1ccc([As](=O)(O)c2ccc([N+](=O)[O-])cc2)cc1`, the inhibition is inactive: -9.74%.

`C(Cc1nn[nH]n1)Cc1nn[nH]n1`: the inhibition was inactive: 5.68%.

Regarding `O=C(OC1CN2CCC1CC2)c1cccc(Cl)c1` (stereo not given), the inhibition is inactive: -0.88%.

Regarding `O=[N+]([O-])c1ncn(CCn2cnc([N+](=O)[O-])n2)n1`, the inhibition is inactive: 2.8%.

As to `CC(=O)NC(SC(=S)N(C)C)C(Cl)(Cl)Cl` (stereo not given), the inhibition is inactive: 3.61%.

Regarding `O=[N+]([O-])c1ccc(O)c(/C=N/Nc2ccc([N+](=O)[O-])cc2[N+](=O)[O-])c1`, the inhibition was inactive: -2.01%.

Take `O=[As](O)(c1ccccc1)c1ccc(O)cc1`: the inhibition was inactive: -7.31%.

Regarding `O=C(Nc1cc([As](=O)(O)O)ccc1O)c1ccccc1`, the inhibition was active: 33.2%.

Consider `O=[N+]([O-])c1cccc(NC2=NCC(CBr)S2)c1` (stereo not given), for which the inhibition is inactive: 6.35%.

In the case of `O=C(O)CNc1ccc([As](=O)(O)O)cc1`, the inhibition is inactive: -3.15%.

As to `CC(C)(C)C(=O)NC(Sc1ccncn1)C(Cl)(Cl)Cl` (stereo not given), the inhibition is inactive: -7.31%.

Take `O=[N+]([O-])c1ncn(CCn2ncnc2[N+](=O)[O-])n1`: the inhibition is inactive: -2.62%.

For `CC(=O)N1C2C3N(C(C)=O)C1C1N(C(C)=O)C(C(N1C(C)=O)N3C(C)=O)N2C(C)=O`, the inhibition is inactive: -12.3%.

For the compound `O=[N+]([O-])c1cccc2n[nH]nc12`, the inhibition is inactive: 4.05%.

For the compound `Cc1ccc(NP(=O)(Oc2ccccc2)Oc2ccccc2)nc1`, the inhibition was inactive: -17.5%.

Take `O=[N+]([O-])c1cc([N+](=O)[O-])c(CCNc2ccccc2)c([N+](=O)[O-])c1`: the inhibition is inactive: 17.7%.

For `CCc1nc2c(n1)c1c(non1O)c1c2no[n+]1[O-]`, the inhibition is inactive: 9.23%.

In the case of `COc1ccc(C2=NCC(CBr)S2)cc1` (stereo not given), the inhibition is inactive: -0.67%.

For `CC(C)=N/N=C(\N)N[N+](=O)[O-]`, the inhibition was active: 38%.

For the compound `CN(C)C(=O)OCCc1n(C)cc[n+]1C`, the inhibition is inactive: -1.51%.

For `CC1CCN(C(=O)Oc2c(Cl)cc(Cl)c3cccnc23)CC1`, the inhibition was inactive: 28%.

In the case of `Nc1ccc([As](=O)(O)c2ccc(N)cc2)cc1`, the inhibition is inactive: -1.14%.

Regarding `C[N+]1=C2C=CC=CC=C2SC12C([N+](=O)[O-])=CC([N+](=O)[O-])=C[C-]2[N+](=O)[O-]` (stereo not given), the inhibition is active: 31%.

On to `CCN(/C(=N/P(=O)(N1CCOCC1)N1CCOCC1)N1CCOCC1)c1ccc(OC)cc1`, for which the inhibition is inactive: -2.47%.

`COc1ccccc1OP(=O)(Nc1ccc(C)cn1)Oc1ccccc1OC`: the inhibition is inactive: 6.25%.

As for `Cc1ccc(OP(=O)(Nc2nccs2)Oc2ccc(C)cc2)cc1`, the inhibition is inactive: -0.24%.

On to `Clc1ccc(Cl)c(NC2=NCC(CBr)S2)c1` (stereo not given), for which the inhibition was inactive: 3.67%.

As for `CN1CCCC(OC(=O)C(c2ccccc2)c2ccccc2)C1` (stereo not given), the inhibition is inactive: -1.51%.

`NC(=O)c1cc([N+](=O)[O-])cc([N+](=O)[O-])c1N`: the inhibition is inactive: -14.4%.

On to `Cc1ccc(N/C(=N/P(=O)(N2CCOCC2)N2CCOCC2)N2CCOCC2)cc1`, for which the inhibition is inactive: -1.39%.

As for `CC(C)CC(=O)NC(Sc1ccc(Cl)cc1)C(Cl)(Cl)Cl` (stereo not given), the inhibition was inactive: -7.37%.

As to `Nc1cc(N)c2nonc2c1[N+](=O)[O-]`, the inhibition was inactive: 5.62%.

For `Oc1ccccc1CNc1ccccn1`, the inhibition was inactive: -3.13%.

In the case of `Cc1c2non([O-])c-2c(C)[n+](=O)[n+]1[O-]`, the inhibition was active: 55.1%.

Regarding `O=C(NC(Sc1ccncn1)C(Cl)(Cl)Cl)c1ccccc1` (stereo not given), the inhibition was inactive: 9.27%.

Turning to `CCOP(=O)(Nc1ccccc1)OCC`, the inhibition is inactive: -0.56% and inactive: 0.11%.

As to `Cc1cc(SC(NC(=O)c2ccc(F)cc2)C(Cl)(Cl)Cl)ncn1` (stereo not given), the inhibition was inactive: 16%.

As to `Cc1ccc(NP(=O)(Oc2ccccc2F)Oc2ccccc2F)nc1`, the inhibition was inactive: -2.53%.

For `O=C(O)c1ccccc1[As](=O)(O)O`, the inhibition is inactive: -4.21%.

Take `CC(=O)Nc1ccc([As](=O)(O)O)cc1`: the inhibition is inactive: 2.05%.

Consider `O=P(Nc1nc2ccc(Cl)cc2s1)(c1ccccc1)c1ccccc1`, for which the inhibition was inactive: -1.15%.

Take `CCN(N=Nc1nonc1N)c1nonc1N`: the inhibition is inactive: -2.87%.

`Nc1cccc2ccc([As](=O)(O)O)cc12`: the inhibition was inactive: 12.5%.

Turning to `O=[N+]([O-])c1cc([N+](=O)[O-])c(CCN2CCOCC2)c([N+](=O)[O-])c1`, the inhibition is inactive: 16.4%.

As to `Cc1ccc2nc3c(c(C)c2c1)CC(C(Cl)Cl)S3` (stereo not given), the inhibition was inactive: -9.28%.

As to `Cc1ccc(OP(=O)(Nc2ccc([N+](=O)[O-])cn2)Oc2ccc(C)cc2)cc1`, the inhibition is inactive: -3.34%.

Consider `C[As](=O)(O)c1cccc(C(=O)O)c1`, for which the inhibition is inactive: -7.99%.

Consider `O=[As](O)(c1ccc(O)cc1)c1ccccc1O`, for which the inhibition was inactive: 9.58%.

For `CCN(CC)C(=S)SC(NC=O)C(Cl)(Cl)Cl` (stereo not given), the inhibition is inactive: -1.06%.

As to `CC(C)NC(=O)NP(=O)(Oc1ccccc1)Oc1ccccc1`, the inhibition is inactive: 7.17%.

For the compound `O=[N+]([O-])c1cc([N+](=O)[O-])c(-c2ccn[nH]2)s1`, the inhibition was inactive: 16.3%.

As for `CC(C)c1ccc(OP(=O)(Nc2ccccn2)Oc2ccccc2F)cc1` (stereo not given), the inhibition is inactive: 3.79%.

Take `ClCCSc1nnc(-c2cccnc2)o1`: the inhibition was inactive: 2.59%.

As for `COc1ccc2nc(NP(=O)(c3ccccc3)c3ccccc3)sc2c1`, the inhibition is inactive: -9.1%.

Turning to `COc1cc(I)ccc1[As](=O)(O)O`, the inhibition is inactive: -3.16%.

As for `O=C(OC1CN2CCC1CC2)C12CC3CC(CC(C3)C1)C2` (stereo not given), the inhibition is inactive: -20.8%.

For `Cc1cc(=O)[nH]c(N[N+](=O)[O-])n1`, the inhibition is inactive: -1.64%.

In the case of `Cc1c2c(nc3ccccc13)SC(C(Cl)Cl)C2` (stereo not given), the inhibition is inactive: 4.8%.

As to `COc1ccc(N/C(=N/P(=O)(N2CCOCC2)N2CCOCC2)N2CCOCC2)cc1`, the inhibition was inactive: 5.5%.

Take `O=C(COc1ccccc1)OC1CN2CCC1CC2` (stereo not given): the inhibition is inactive: 2.64%.

Take `O=C(Nc1ccncc1[N+](=O)[O-])c1ccc([N+](=O)[O-])cc1[N+](=O)[O-]`: the inhibition is inactive: -0.04%.

Consider `COP1(=S)c2c(C)nn(CCC#N)c2N=C(c2ccc(F)cc2)N1C` (stereo not given), for which the inhibition is inactive: -0.81%.

On to `CCC(C)N(CC(C)C)C(=S)SC(NC(C)=O)C(Cl)(Cl)Cl` (stereo not given), for which the inhibition is inactive: -10.7%.

`CCOC(=O)c1ccc(NC(=O)C(C)(CCl)SC)cc1` (stereo not given): the inhibition was inactive: 2.21%.

In the case of `O=C(OC1CN2CCC1CC2)c1cccc([N+](=O)[O-])c1` (stereo not given), the inhibition was inactive: -8.07%.

In the case of `CCCCOc1ccc(C(=O)NCC2(N3CCCCC3)CCCCC2)cc1OC`, the inhibition was inactive: 0.69%.

As for `Cc1cc(SC(NC(=O)c2ccccc2)C(Cl)(Cl)Cl)nc(C(C)C)n1` (stereo not given), the inhibition was inactive: 11.9%.

Turning to `CCOC(=O)Nc1ccc([As](=O)(O)O)c(O)c1`, the inhibition is inactive: 0.85%.

With `O=[N+]([O-])c1ccc(Nc2ccc(Oc3ccc([N+](=O)[O-])cc3[N+](=O)[O-])cc2)c([N+](=O)[O-])c1`, the inhibition is inactive: -0.81%.

Turning to `Cc1cc(SC(NC=O)C(Cl)(Cl)Cl)ncn1` (stereo not given), the inhibition is inactive: 24.6%.

On to `O=P(Nc1ccccn1)(c1cccc2ccccc12)c1cccc2ccccc12`, for which the inhibition is inactive: -0.8%.

Consider `CCOC(=O)Nc1cccc([As](=O)(O)O)c1`, for which the inhibition is inactive: -8.29%.

For `O=C(/C=C/c1ccccc1)OC1CN2CCC1CC2` (stereo not given), the inhibition is inactive: -11.8%.

Take `CN(C)C1(CNC(=O)c2ccc(S(C)(=O)=O)cc2)CCCCC1`: the inhibition is inactive: -11.3%.

With `Cc1nn(-c2ccccc2)c2c1P(=O)(N1CCOCC1)N(C)C(c1ccccc1)=N2` (stereo not given), the inhibition is inactive: 7.91%.

Source of the values: PubChem BioAssay AID1822 (The Scripps Research Institute Molecular Screening Center, 2009).
